Assay results as given in US20230192660A1 (priority 2020, published 2023).

Amino acid sequences for entries named in this document (tags omitted). Residues count along the entry.
UniProt P0C6X1, 2966-3267 limits assumed: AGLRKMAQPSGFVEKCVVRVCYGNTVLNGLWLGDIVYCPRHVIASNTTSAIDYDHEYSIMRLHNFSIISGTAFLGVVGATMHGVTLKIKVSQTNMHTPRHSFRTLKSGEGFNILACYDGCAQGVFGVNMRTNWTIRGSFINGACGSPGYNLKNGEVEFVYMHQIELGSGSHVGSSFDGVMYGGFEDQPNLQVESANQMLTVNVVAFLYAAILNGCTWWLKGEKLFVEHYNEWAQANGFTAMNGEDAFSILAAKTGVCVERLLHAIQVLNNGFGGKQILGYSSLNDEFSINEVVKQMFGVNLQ
UniProt P0C6X9, 3334-3635 limits assumed: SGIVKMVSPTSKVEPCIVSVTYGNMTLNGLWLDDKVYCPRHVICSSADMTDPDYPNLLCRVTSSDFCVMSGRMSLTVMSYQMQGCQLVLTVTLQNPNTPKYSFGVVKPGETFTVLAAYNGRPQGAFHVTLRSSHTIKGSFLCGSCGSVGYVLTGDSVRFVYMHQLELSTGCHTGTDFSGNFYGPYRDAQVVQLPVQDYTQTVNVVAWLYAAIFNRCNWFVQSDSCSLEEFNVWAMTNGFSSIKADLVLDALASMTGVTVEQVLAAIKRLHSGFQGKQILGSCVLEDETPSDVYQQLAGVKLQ

What was measured:
[1] = biological target: mature SARSCoV2 M^pro (Severe acute respiratory syndrome coronavirus 2, UniProt P0DTD1); assay: In-vitro Mpro inhibition assay with fluorogenic peptide, mature enzyme; type: biochemical, SARS-CoV-2; conditions: read-out: IC50 SARSCov2 Mpro
[2] = biological target: MERS Mpro (Middle East respiratory syndrome-related coronavirus, UniProt K9N7C7)
[3] = biological target: HCoV229E Mpro (Human coronavirus 229E, UniProt P0C6X1)
[4] = biological target: SARS-CoV-2 mature Mpro (Severe acute respiratory syndrome coronavirus 2, UniProt P0DTD1)
[5] = biological target: SARS-Co-V2 MPro (Severe acute respiratory syndrome coronavirus 2, UniProt P0DTD1); assay: Inhibition of SARS-Co-V2 MPro in vitro (Example 3, FIG. 7, preliminary data); type: biochemical, SARS-CoV-2; conditions: read-out: concentration for 50% inhibition (IC50)
[6] = biological target: MHV M^pro (UniProt P0C6X9); assay: In-vitro Mpro inhibition assay, MHV enzyme; type: biochemical, mouse hepatitis virus (MHV); conditions: read-out: IC50 MHV Mpro

CC1(C)[C@@H]2[C@@H](C(=O)N[C@@H](C[C@@H]3CCNC3=O)C(=O)C(N)=O)N(C(=O)OCc3ccccc3)C[C@@H]21
IC50 [1]: 90 nM
IC50 [2]: 1400 nM
IC50 [3]: 610 nM
ΔTm Mpro [4]: 15.5 °C

CC(C)(C)C(=O)N[C@H](C(=O)N1C[C@H]2[C@@H]([C@H]1C(=O)N[C@@H](C[C@@H]1CCNC1=O)C(=O)C(N)=O)C2(C)C)C(C)(C)C
IC50 [1]: 40 nM
IC50 [2]: 160 nM
IC50 [3]: 350 nM
ΔTm Mpro [4]: 21.3 °C

CC(C)(C)NC(=O)N[C@H](C(=O)N1C[C@@H]2CCC[C@@H]2[C@H]1C(=O)N[C@@H](C[C@@H]1CCNC1=O)C(=O)C(N)=O)C(C)(C)C
IC50 [5]: 153 nM
IC50 [1]: 70 nM
IC50 [6]: 310 nM
IC50 [2]: 1300 nM
IC50 [3]: 1200 nM
ΔTm Mpro [4]: 20.7 °C
